Results of unrelated studies side by side (data: NIAID ChemDB).

Shared fields: whole-cell or culture tests; organism: Rhinovirus; read-out: EC50

Lines come from different laboratories, so protocols vary. ECn: concentration that inhibits the pathogen or its effect by n%. An empty or dashed field is not shown.

structure | strain or isolate | cells | method | result
COc1ccc2nc([C@H](O)[C@@H](O)c3nc4ccc(OC)cc4[nH]3)[nH]c2c1 | Serotype 1A | WI-38 | cytopathic effect | 0.1 µg/mL
CN(C)c1ncnc2c1ncn2Cc1ccc(OCc2ccccc2)cc1 | Serotype 1B | M-HELA | plaque count | >50 µM
Cc1ccc(Cc2ccc(S(C)(=O)=O)cn2)cc1 | TYPE 2 | HeLa | cytopathic effect | >10 µg/mL
Cn1c2ccccc2c2nnc(NCCCO)nc21 | HGP | WI-38 | plaque count | 63 µg/mL
Cc1ccc(Cn2cnc3c(N(C)C)nc(C(F)(F)F)nc32)cc1 | TYPE 3 | M-HELA | plaque count | >2.5 µM
COC(=O)[C@H](Cc1cccc2ccccc12)Nc1nc2ccc(NC(=O)OC(C)(C)C)c(C)c2c(=O)o1 | Serotype 14 | H1-HELA | XTT | 0.1 µM
Cn1c2ccccc2c2nnc(NCCCOC(=O)CCC(O)O)nc21 | HGP | WI-38 | plaque count | 100 µg/mL
c1ccc(C2COc3ccccc3C2)cc1 | Serotype 1B | M-HELA | cytopathic effect | 1.43 µM
COC(=O)c1ccc(-c2oc3ccccc3c(=O)c2OC)cc1 | TYPE 1B | OHIO HELA | plaque count | >25 µM
CN(C)c1ccc(Cn2cnc3c(N(C)C)nc(C(F)(F)F)nc32)cc1 | Serotype 30 | M-HELA | plaque count | >8 µM
COc1ccc2nc([C@H](OC(C)=O)[C@@H](OC(C)=O)c3nc4ccc(OC)cc4[nH]3)[nH]c2c1 | Serotype 1A | WI-38 | cytopathic effect | 10 µg/mL
CN(C)c1ncnc2c1ncn2Cc1cccc([N+](=O)[O-])c1 | Serotype 1B | M-HELA | plaque count | >50 µM
Cc1cc(CCCCCOc2c(Cl)cc(C3=NCCO3)cc2Cl)on1 | TYPE 8 | HeLa | plaque count | >6.2 µg/mL
Cn1c2ccccc2c2nnc(SCCN3CCOCC3)nc21 | 33342 | WI-38 | plaque count | 0.16 µg/mL
CN(C)c1nc(C(F)(F)F)nc2c1ncn2Cc1ccc(Cl)cc1Cl | Serotype 3 | M-HELA | plaque count | >8 µM
CN(C)c1ncnc2c1ncn2Cc1ccc([N+](=O)[O-])cc1 | Serotype 1B | M-HELA | plaque count | >50 µM
Clc1ccc2c(c1)C=C(c1ccccc1)CO2 | Serotype 1B | M-HELA | plaque count | 7.258 µM
COc1ccc2nc([C@@H](O)[C@@H](O)c3nc4ccc(OC)cc4[nH]3)[nH]c2c1 | Serotype 1A | WI-38 | cytopathic effect | 10 µg/mL
COc1ccc(CNc2ccc(S(C)(=O)=O)cn2)cc1OC | TYPE 2 | HeLa | cytopathic effect | >10 µg/mL
CSc1nsc(-c2ccc(OCCCc3ccccc3)cc2)c1C#N | Serotype 9 (group B) | HELA-OHIO | cytopathic effect | 5 µM
Cc1cc(CCCOc2c(C)cc(-c3nnn(C)n3)cc2C)on1 | Serotype 16 |  | plaque count | 0.037 µg/mL
CCOC(=O)c1ccc(OCCC2CCN(c3ccc(C)nn3)CC2)cc1 | 47-CV21 (ICAM-1 receptor group 21) | KB | neutral red | 0.271 µM
CS(=O)(=O)c1ccc(NCc2ccc(Cl)c(Cl)c2)nc1 | TYPE 9 | HeLa | cytopathic effect | 5 µg/mL
CCOC(=O)/C=C/[C@H](C[C@@H]1CCNC1=O)NC(=O)[C@H](Cc1ccccc1)NC(=O)[C@H](CC(C)C)NC(=O)COc1ccccc1 | Serotype 14 | H1-HELA | XTT | 0.1 µM
CSc1nsc(-c2ccc(OCCc3ccccc3)cc2)c1C#N | Serotype 85 (group B) | HELA-OHIO | cytopathic effect | 1.25 µM
COc1ccc(-c2snc(SC)c2C#N)cc1 | Serotype 29 (group B) | HELA-OHIO | cytopathic effect | >12 µM
CC(C)C[C@H](NC(=O)OCc1ccccc1)C(=O)N[C@@H](Cc1ccccc1)C(=O)N[C@H](/C=C/c1ccno1)CCC(N)=O | Serotype 14 | H1-HELA | XTT | 0.005 µM
Cc1cc(CCCOc2c(Cl)cc(C3=NCCO3)cc2Cl)on1 | Serotype 14 |  | plaque count | >8.7 µg/mL
CCOC(=O)c1ccc(OCCC2CCN(c3ccc(C)nn3)CC2)cc1 | Serotype 14 |  |  | <0.13 µM
CCOC(=O)c1ccc(OCCCOc2ccc(-c3snc(SC)c3C#N)cc2)cc1 | Serotype 63 (group B) | HELA-OHIO | cytopathic effect | >2 µM
Clc1ccc2c(c1)CC(c1ccccc1)CO2 | Serotype 1B | M-HELA | plaque count | 0.266 µM
CSc1nsc(-c2ccc(OCCOc3ccc(C#N)cc3)cc2)c1C#N | Serotype 70 (group A) | HELA-OHIO | cytopathic effect | >2 µM
CS(=O)(=O)c1ccc(Cc2ccc(S(C)(=O)=O)cn2)cc1 | TYPE 64 | HeLa | cytopathic effect | >10 µg/mL
CN(C)c1nc(Cl)nc2c1ncn2Cc1ccc(Cl)cc1 | Serotype 18 | M-HELA | plaque count | >5 µM
CSc1nsc(-c2ccc(OCCOc3ccccc3)cc2)c1C#N | Serotype 2 (group B) | HELA-OHIO | cytopathic effect | >20 µM
Cc1c(-c2ccccc2)n(-c2ccc(F)cc2)c2ccc(C(C)C)cc2c1=O | 29/5582 | HELA-OHIO | cytopathic effect | 0.11 µg/mL
CCOC(=O)/C=C/[C@H](C[C@@H]1CCNC1=O)NC(=O)[C@H](Cc1ccc(F)cc1)NC(=O)[C@@H](NC(=O)c1cc(C)on1)C(C)C | Serotype 14 |  |  | <0.04 µM
CCOC(=O)c1ccc(OCCOc2ccc(-c3snc(SC)c3C#N)cc2)cc1 | Serotype 89 (group B) | HELA-OHIO | cytopathic effect | >2 µM
CSc1nsc(-c2ccccc2)c1C#N | Serotype 86 (group A) | HELA-OHIO | cytopathic effect | >80 µM
Cc1c(-c2ccccc2)n(-c2cccc(F)c2)c2ccc(C(C)C)cc2c1=O | 8/MRH | HELA-OHIO | cytopathic effect | >1 µg/mL
Clc1ccc(C2COc3ccc(Cl)cc3C2)cc1 | Serotype 1B | M-HELA | cytopathic effect | 0.36 µM
CCOc1cc(CCCOc2c(C)cc(-c3noc(C)n3)cc2C)on1 | Serotype 22 | HeLa | cytopathic effect | 0.018 µg/mL
O=C(O)c1ccc(-c2cc(=O)c3cc(Cl)ccc3o2)cc1 | TYPE 1B | OHIO HELA | plaque count | >12.5 µM
CCOC(=O)c1ccc(OCCC2CCN(c3ccc(C)nn3)CC2)cc1 | Serotype 63 (group B) | HELA-OHIO | cytopathic effect | 0.01 µM
CN(C)c1nc(C(F)(F)F)nc2c1ncn2Cc1ccc(F)cc1 | Serotype 19 | M-HELA | plaque count | >8 µM
O=c1cc(-c2ccc(C3=NCCO3)cc2)oc2ccc(Cl)cc12 | TYPE 1B | OHIO HELA | plaque count | 14.51 µM
Brc1ccc(C2=Cc3cc(Br)ccc3OC2)cc1 | Serotype 1B | M-HELA | cytopathic effect | 3.28 µM
CC1=CC(C(=O)N[C@H](C(=O)C[C@@H](Cc2ccc(F)cc2)C(=O)N[C@H](/C=C2\CCOC2=O)CCC(N)=O)C(C)C)NO1 | Serotype 14 | H1-HELA | XTT | 0.18 µM
Cn1c2ccccc2c2nnc(NCCCCO)nc21 | 33342 | WI-38 | plaque count | 20 µg/mL
CCOC(=O)c1ccc(OCCC2CCN(c3ccc(C)nn3)CC2)cc1 | Serotype 28 | WI-38 | cytopathic effect | <0.1 µg/mL
CSc1nsc(-c2ccc(O)cc2)c1C#N | Serotype 86 (group A) | HELA-OHIO | cytopathic effect | 4.4 µM
Cc1cc(CCCOc2c(C)cc(-c3noc(C(F)(F)F)n3)cc2C)on1 | Isolate 24 | OHIO HELA-I | cytopathic effect / visual reading | 0.09 µg/mL
CN(C)c1nnc2c3ccccc3n(C)c2n1 | 33342 | WI-38 | plaque count | 45 µg/mL
Cc1nc(-c2cc(C)c(OCCCc3cc(C(F)(F)F)no3)c(C)c2)no1 | Serotype 2 | HeLa | cytopathic effect | 0.04 µg/mL
O=C(O)c1ccc(-c2oc3ccc(Cl)cc3c(=O)c2O)cc1 | TYPE 1B | OHIO HELA | plaque count | 8.68 µM
Cc1ccc(Cn2cnc3c(N(C)C)nc(C(F)(F)F)nc32)c(C)c1 | Serotype 29 | M-HELA | plaque count | >8 µM
O[C@@H](c1nc2ccc(Cl)cc2[nH]1)[C@@H](O)c1nc2ccc(Cl)cc2[nH]1 | Serotype 1A | WI-38 | cytopathic effect | 100 µg/mL
CC(C)S(=O)(=O)c1ccc(Cc2ccc(Cl)c(Cl)c2)nc1 | TYPE 64 | HeLa | cytopathic effect | 0.6 µg/mL
CCc1nc(-c2cc(C)c(OCCCc3cc(COC)no3)c(C)c2)no1 | Serotype 25 | HeLa | cytopathic effect | 0.003 µg/mL
CN(C)c1nc(C(F)(F)F)nc2c1ncn2Cc1ccc(S(C)(=O)=O)cc1 | Serotype 30 | M-HELA | plaque count | >8 µM
CS(=O)(=O)c1ccc(Cc2ccc(Cl)c(Cl)c2)nc1 | TYPE 64 | HeLa | cytopathic effect | <0.3 µg/mL
CN(C)c1nc(C(F)(F)F)nc2c1ncn2Cc1ccccc1Cl | Serotype 15 | M-HELA | plaque count | >8 µM
Cn1c2ccc(Cl)cc2c2nnc(NCCCO)nc21 | 1059 | WI-38 | plaque count | 220 µg/mL
CCn1c(-c2cccc(F)c2)c(C)c(=O)c2cc(C(C)C)ccc21 | TYPE 2/ HGP | HELA-OHIO | cytopathic effect | 0.65 µg/mL
CC(C)Oc1ccc(Cn2cnc3c(N(C)C)nc(C(F)(F)F)nc32)cc1 | Serotype 1B | M-HELA | plaque count | 1 µM
Cn1c2ccccc2c2nnc(N3CCOCC3)nc21 | 33342 | WI-38 | plaque count | 100 µg/mL

6 of the rows above, restated:

structure,strain or isolate,cells,method,result
CCOC(=O)c1ccc(OCCCOc2ccc(-c3snc(SC)c3C#N)cc2)cc1,Serotype 63 (group B),HELA-OHIO,cytopathic effect,>2 µM
c1ccc(C2COc3ccccc3C2)cc1,Serotype 1B,M-HELA,cytopathic effect,1.43 µM
CN(C)c1ncnc2c1ncn2Cc1ccc(OCc2ccccc2)cc1,Serotype 1B,M-HELA,plaque count,>50 µM
CS(=O)(=O)c1ccc(Cc2ccc(S(C)(=O)=O)cn2)cc1,TYPE 64,HeLa,cytopathic effect,>10 µg/mL
CSc1nsc(-c2ccc(OCCCc3ccccc3)cc2)c1C#N,Serotype 9 (group B),HELA-OHIO,cytopathic effect,5 µM
O[C@@H](c1nc2ccc(Cl)cc2[nH]1)[C@@H](O)c1nc2ccc(Cl)cc2[nH]1,Serotype 1A,WI-38,cytopathic effect,100 µg/mL